{"source": "PubChem BioAssay AID504761 (Drosophila RNAi Screening Center, 2011)", "test": "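Insect host genes that dengue virus relies on to spread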 (primary screen)", "cell system": "D.Mel-2 cells from Drosophila", "reagent": "long dsRNA against Drosophila genes", "challenge": "infection with dengue virus type 2; dose and infection time not stated", "measured": "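Cells stained for dengue envelope protein and imaged; percent of infected cells per well on duplicate plates, ranked by infection, with stained nuclei counted for cell number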", "direction": "infection score: higher = more virus-infected cells; cell count: higher = more cells in the well", "hit rule": "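Low infection ranks in the two replicates (chance level up to 0.065) followed by a retest with a 1.5-fold or larger significant decrease, p below 0.05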", "meaning of the calls": "active = confirmed: knock-down lowers infection; inactive = not picked or not confirmed", "note": "The screen tested about 22,000 reagents; below is an unselected part of those that have a named target and a result. Of all reagents, 116 (0.52%) were called active. 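Calls depend on retest data that are not deposited; infection was ranked per plate without normalising between plates; the unit of the infection score is not given.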 Raw values are not corrected between plates. Further read-outs or replicates are left out here. Not given: the amount of reagent, the time to read-out."}
{"gene": "G9a", "amplicon": "DRSC18619", "infection score, replicate 1": 2, "cell count, replicate 1": 6450, "call": "inactive"}
{"gene": "Nph (Nucleophosmin)", "amplicon": "DRSC16342", "infection score, replicate 1": 6.05, "cell count, replicate 1": 4677, "call": "inactive"}
{"gene": "CG42449", "amplicon": "DRSC18084", "infection score, replicate 1": 9.38, "cell count, replicate 1": 6406, "call": "inactive"}
{"gene": "CG42449", "amplicon": "DRSC25316", "infection score, replicate 1": 25.2, "cell count, replicate 1": 5727, "call": "inactive"}
{"gene": "CG11380", "amplicon": "DRSC23223", "infection score, replicate 1": 2.25, "cell count, replicate 1": 6809, "call": "inactive"}
{"gene": "CG11380", "amplicon": "DRSC29190", "infection score, replicate 1": 27.8, "cell count, replicate 1": 6110, "call": "inactive"}
{"gene": "Fbxo42 (F-box protein 42)", "amplicon": "DRSC04529", "infection score, replicate 1": 3.4, "cell count, replicate 1": 6139, "call": "inactive"}
{"gene": "Fbxo42 (F-box protein 42)", "amplicon": "DRSC29911", "infection score, replicate 1": 11.9, "cell count, replicate 1": 6278, "call": "inactive"}
{"gene": "ph-p (polyhomeotic proximal)", "amplicon": "DRSC18820", "infection score, replicate 1": 9.84, "cell count, replicate 1": 5671, "call": "inactive"}
{"gene": "bs (blistered)", "amplicon": "DRSC23068", "infection score, replicate 1": 1.69, "cell count, replicate 1": 5696, "call": "inactive"}
{"gene": "bs (blistered)", "amplicon": "DRSC25943", "infection score, replicate 1": 3.33, "cell count, replicate 1": 6210, "call": "inactive"}
{"gene": "CG34276", "amplicon": "DRSC15811", "infection score, replicate 1": 5.19, "cell count, replicate 1": 6377, "call": "inactive"}
{"gene": "CG14632 (retired record)", "amplicon": "DRSC17942", "infection score, replicate 1": 3.28, "cell count, replicate 1": 6340, "call": "inactive"}
{"gene": "CG14632 (retired record)", "amplicon": "DRSC25845", "infection score, replicate 1": 1.57, "cell count, replicate 1": 6386, "call": "inactive"}
{"gene": "Sugb (Sugar baby)", "amplicon": "DRSC10815", "infection score, replicate 1": 7.5, "cell count, replicate 1": 6264, "call": "inactive"}
{"gene": "CG10347", "amplicon": "DRSC19352", "infection score, replicate 1": 1.41, "cell count, replicate 1": 6234, "call": "inactive"}
{"gene": "geko", "amplicon": "DRSC10044", "infection score, replicate 1": 3.36, "cell count, replicate 1": 6763, "call": "inactive"}
{"gene": "geko", "amplicon": "DRSC10045", "infection score, replicate 1": 5.39, "cell count, replicate 1": 6253, "call": "inactive"}
{"gene": "Tmtc1 (Transmembrane O-mannosyltransferase targeting cadherins 1)", "amplicon": "DRSC00151", "infection score, replicate 1": 4.03, "cell count, replicate 1": 5732, "call": "inactive"}
{"gene": "CG13075", "amplicon": "DRSC09958", "infection score, replicate 1": 1.84, "cell count, replicate 1": 6141, "call": "inactive"}
{"gene": "CG13075", "amplicon": "DRSC28458", "infection score, replicate 1": 6.99, "cell count, replicate 1": 4466, "call": "inactive"}
{"gene": "Kua", "amplicon": "DRSC02100", "infection score, replicate 1": 6.8, "cell count, replicate 1": 6777, "call": "inactive"}
{"gene": "Cc2d2a (Coiled-coil and C2 domain containing 2A)", "amplicon": "DRSC06750", "infection score, replicate 1": 33.5, "cell count, replicate 1": 5956, "call": "inactive"}
{"gene": "CG2938", "amplicon": "DRSC18243", "infection score, replicate 1": 39.5, "cell count, replicate 1": 5213, "call": "inactive"}
{"gene": "CG2938", "amplicon": "DRSC27919", "infection score, replicate 1": 34.9, "cell count, replicate 1": 5202, "call": "inactive"}
{"gene": "CG8478", "amplicon": "DRSC16427", "infection score, replicate 1": 3.57, "cell count, replicate 1": 6865, "call": "inactive"}
{"gene": "CG13245", "amplicon": "DRSC02243", "infection score, replicate 1": 9.71, "cell count, replicate 1": 6467, "call": "inactive"}
